Test: Biodegradability OECD 301 A (92/69/EEC C4-A)
Experimental: In fact, based on data available with respect to the most similar compounds to the menadione derivatives disclosed herein, one would expect a degradability in the range of 0% (percentage calculated based on the initial mass expressed in mg/l) typical of menadione (2-methyl-1,4-naphthalenedione) and 17% (assessed after 28 days) typical of menadione sodium bisulphite (which calculation was performed in accordance with the guidelines OECD301 A attached to directive EEC 92/69/EEC C4-A).
Finally biodegradability was also evaluated according to standard 92/69/EEC C4-A. From the data, both MNB and MPB result to have a remarkably better biodegradability than 2-methyl-1,4-naphthalenedione and particularly than MSB.

Structure (SMILES)	% biodegr. OECD 301 A (after 7 days) [%]	% biodegr. OECD 301 A (after 14 days) [%]	% biodegr. OECD 301 A (after 28 days) [%]
CC1=CC(=O)c2ccccc2C1=O [Menadione, 2-methyl-1,4-naphthalenedione, reference compound]	0	0	0
CC1(S(=O)(=O)[O-])CC(=O)c2ccccc2C1=O.[Na+] (stereo not drawn) [MSB, menadione sodium bisulphite]	5	10	17
CC1(S(=O)(=O)O)CC(=O)c2ccccc2C1=O.Cc1cc(C)[nH]c(=O)n1 (stereo not drawn) [MPB, menadione dimethylpyrimidinole bisulphite]	37	37	40
